Experimental data published in patent publication US20250002564A1, “MODIFIED MULTABODY CONSTRUCTS, COMPOSITIONS, AND METHODS” (HOSPITAL FOR SICK CHILDREN, published 2025).

Key:
[1] = target: T1, SARS-CoV-2 receptor binding domain (RBD), wild type, His-tagged (SARS-CoV-2, UniProt P0DTC2 319-541); experiment: method and format not given
T1 construct: domain: RBD; also called His-tagged RBD; BEI NR52309

[2] = target: T1, SARS-CoV-2 receptor binding domain …; experiment: method and format not given; remark: listed apart in the source

Binder | Kd [1] [nM] | Kd [2] [nM]
mAb 80 (antibody, V domains shown, also called IgG 80; Antibody 80) VH: QVQLVQSGAEVKKPGSSVKVSCKASGGTFNRYAFSWVRQAPGQGLEWMGGIIPIFGTANYAQKFQGRVTITADESTSTAYMELSSLRSEDTAVYYCARSTRELPEVVDWYFDLWGRGTLVTVSS VL: DIVMTQSPDSLAVSLGERATINCKSSQSVLYSSNNKNYLAWYQQKPGQPPKLLIYWASTRESGVPDRFSGSGSGTDFTLTISSLQAEDVAVYYCQQYYSAPLTFGGGTKVEIKR | 142 | 
mAb 298 (antibody, V domains shown, also called IgG 298; Antibody 298) VH: QVQLVQSGAEVKKPGASVKVSCKASGGTFSTYGISWVRQAPGQGLEWMGWISPNSGGTDLAQKFQGRVTMTRDTSTSTVYMELSSLRSEDTAVYYCASDPRDDIAGGYWGQGTLVTVSS VL: not shown |  | 24

Read-outs that look alike come from different tables or passages of the source.
